The values that follow come from paper PMC11890623, “Pseudomonas aeruginosa acyl-CoA dehydrogenases and structure-guided inversion of their substrate specificity” (Nature Communications, 2025).

Amino acid sequences for entries named in this document (tags omitted). Residues count along the entry.
UniProt Q9I612, 1-601 limits assumed: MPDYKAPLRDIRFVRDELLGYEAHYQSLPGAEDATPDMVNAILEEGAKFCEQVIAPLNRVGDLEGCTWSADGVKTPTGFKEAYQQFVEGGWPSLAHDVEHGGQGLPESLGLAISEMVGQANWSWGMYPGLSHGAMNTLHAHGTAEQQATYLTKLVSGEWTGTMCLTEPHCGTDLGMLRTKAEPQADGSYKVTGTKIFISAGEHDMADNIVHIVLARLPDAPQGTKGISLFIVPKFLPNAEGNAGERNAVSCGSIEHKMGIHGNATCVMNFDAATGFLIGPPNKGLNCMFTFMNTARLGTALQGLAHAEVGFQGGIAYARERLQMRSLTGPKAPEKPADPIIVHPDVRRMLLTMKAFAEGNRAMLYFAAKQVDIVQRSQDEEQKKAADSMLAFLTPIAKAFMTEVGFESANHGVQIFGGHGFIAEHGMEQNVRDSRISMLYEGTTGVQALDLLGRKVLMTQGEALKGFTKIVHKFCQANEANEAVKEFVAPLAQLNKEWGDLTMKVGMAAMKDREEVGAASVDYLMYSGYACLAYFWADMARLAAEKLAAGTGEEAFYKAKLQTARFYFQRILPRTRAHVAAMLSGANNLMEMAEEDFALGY
UniProt Q9I610, 1-592 limits assumed: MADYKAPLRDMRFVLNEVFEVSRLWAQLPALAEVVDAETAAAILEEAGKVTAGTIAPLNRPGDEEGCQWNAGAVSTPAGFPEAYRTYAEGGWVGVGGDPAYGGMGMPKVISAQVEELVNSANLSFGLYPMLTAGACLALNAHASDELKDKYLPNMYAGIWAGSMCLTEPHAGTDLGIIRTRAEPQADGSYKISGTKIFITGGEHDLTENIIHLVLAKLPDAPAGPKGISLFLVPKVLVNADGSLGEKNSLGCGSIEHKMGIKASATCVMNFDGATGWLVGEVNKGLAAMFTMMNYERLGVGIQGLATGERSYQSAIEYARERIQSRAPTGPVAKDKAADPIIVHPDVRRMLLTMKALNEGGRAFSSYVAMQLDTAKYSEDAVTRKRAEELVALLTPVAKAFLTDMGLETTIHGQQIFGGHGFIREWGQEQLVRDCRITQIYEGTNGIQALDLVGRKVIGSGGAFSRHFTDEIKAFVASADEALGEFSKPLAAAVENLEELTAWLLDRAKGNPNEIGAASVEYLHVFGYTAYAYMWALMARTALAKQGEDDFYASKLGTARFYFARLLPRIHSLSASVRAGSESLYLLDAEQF

In one assay the target is FadE1 (Pseudomonas aeruginosa, UniProt Q9I612). Put plainly: purified enzyme dehydrogenase assay (ferrocenium reduction) with C8-CoA substrate. Type of assay: biochemical. To be noted: tested form: TFA.
The target in the next assay is FadE2 (Pseudomonas aeruginosa, UniProt Q9I610). Described as above. The conditions noted are these: tested form: TFA. The assay is classed as biochemical.

On to `C=C(CCCCC)CC(=O)SCCNC(=O)CCNC(=O)[C@H](O)C(C)(C)COP(=O)(O)OP(=O)(O)OC[C@H]1O[C@@H](n2cnc3c(N)ncnc32)[C@H](O)[C@@H]1OP(=O)(O)O`, for which the half-inhibitory concentration (IC50) is 1400 nM at FadE1 and 2000 nM on FadE2.
